Test results taken from patent publication US10500261B2 (priority 2014, dated 2019).

Columns and labels:
[1] = test system: HS3 CPS conjugate antisera; conditions: 2 μl of 1 mg/ml spotted on nitrocellulose; mouse serum 1:500
[2] = test system: HS23/36 CPS conjugate antisera; conditions: 2 μl of 1 mg/ml spotted on nitrocellulose; rabbit serum; chemiluminescence
[3] = test system: HS1 CPS conjugate antisera; conditions: 2 μl of 1 mg/ml spotted on nitrocellulose; mouse serum 1:500
[4] = test system: HS4 CPS conjugate antisera; conditions: 2 μl of 1 mg/ml spotted on nitrocellulose; rabbit serum

5-Amino-pentanyl 6-O-methylphosphramidate-β-D-galactopyranoside
recognition by HS3 CPS-CRM197 conjugate antiserum [1]: did not react
recognition by HS23/36 CPS-CRM197 conjugate antiserum [2]: strongly recognized
recognition by HS1 CPS-CRM197 conjugate antiserum [3]: weaker intensity
recognition by HS4 CPS-CRM197 conjugate antiserum [4]: strongly recognized
